The values that follow come from patent publication US20180111913A1, “SUBSTITUTED BENZOFURAN DERIVATIVES AS NOVEL ANTIMYCOBACTERIAL AGENTS” (priority 2015, published 2018).

Amino acid sequences for entries named in this document (tags omitted). Residues count along the entry.
UniProt I6X8D2, 1451-1733 limits assumed: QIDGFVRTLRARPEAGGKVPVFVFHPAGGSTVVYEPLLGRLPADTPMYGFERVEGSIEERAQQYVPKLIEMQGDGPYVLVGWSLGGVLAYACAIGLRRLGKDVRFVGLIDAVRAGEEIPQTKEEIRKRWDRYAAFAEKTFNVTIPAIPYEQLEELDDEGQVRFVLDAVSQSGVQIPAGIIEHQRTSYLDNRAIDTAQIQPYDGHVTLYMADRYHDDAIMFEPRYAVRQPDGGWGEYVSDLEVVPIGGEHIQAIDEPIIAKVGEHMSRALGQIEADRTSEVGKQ

In the test the target is Mtb Pks13-TE domain (wild-type) (Mycobacterium tuberculosis, UniProt I6X8D2). To be noted: 20 μM 4-MUH.

Compound `CNC(=O)c1c(-c2ccccc2)oc2ccc(O)c(CCN[C@@H](Cc3cnc[nH]3)C(N)=O)c12` displayed an IC50 of 1.6 µM. `CCOC(=O)c1c(-c2ccccc2)oc2ccc(O)c(CCN3CCCC3CCO)c12` (centres unmarked): the IC50 came out at 6.5 µM.
